Laboratory results from ChEMBL document CHEMBL1147716, “A series of 5-aminosubstituted 4-fluorobenzyl-8-hydroxy-[1,6]naphthyridine-7-carboxamide HIV-1 integrase inhibitors” (Bioorg Med Chem Lett, 2006).

Species: Homo sapiens
Experiment: Protein binding in human plasma at pH 7.4
Conditions: read-out: PPB (converted)

fraction unbound	SMILES
0.167	CN(C)C(=O)CN(C)c1nc(C(=O)NCc2ccc(F)cc2)c(O)c2ncccc12
0.068	CN(C)C(=O)C(=O)N(C)c1nc(C(=O)NCc2ccc(F)cc2)c(O)c2ncccc12
